According to article PMC3445454, “Broad and Cross-Clade CD4^+ T-Cell Responses Elicited by a DNA Vaccine Encoding Highly Conserved and Promiscuous HIV-1 M-Group Consensus Peptides” (PLoS ONE, 2012):
Where two headings read alike, the source gives them in different places.

How the values were obtained:
Experiment in all cases: biochemical
[1] = target: HLA-DQ DQA1*01:02/DQB1*06:02 (Homo sapiens, UniProt P01909+P01920, A157G/A45G/C70R/E118A/E183D/E77G/F83G/G63E/H151Q/H199R/H252R/H253Q/I129T/I235V/I88M/INS77G/K197Q/L117V/L119F/L178F/L71W/L74F/L85Q/L91A/L98M/N214S/P87R/Q116E/Q76K/R102G/R240Q/R75S/R78G/S102Y/S185I/S41F/S97I/T121G/T122I/T172A/T86R/V229M/V68A/V73E/Y34C/Y41F/Y58L); format: binding
[2] = target: HLA-DQ DQA1*04:01/DQB1*04:02 (Homo sapiens, UniProt P01909+P01920, A45G/E106S/E183D/E77G/E98D/H199R/I129T/K197E/L107V/L178F/L91T/P87R/P88L/R102E/S185I/S97I/T103D/T217I/V99I/Y41F/Y58G)
[3] = target: HLA-DQ DQA1*01:03/DQB1*06:03 (Homo sapiens, UniProt P01909+P01920, A157G/A45G/C70R/E118A/E183D/E77G/F83G/G63E/H199R/H252R/H253Q/I129T/I235V/I88M/INS77G/K197Q/L117V/L119F/L178F/L71W/L74F/L85Q/L91A/L98M/N214S/P87R/Q116E/Q76K/R102G/R240Q/R64K/R75S/R78G/S102Y/S152A/S185I/S41F/S97I/T121G/T122I/T172A/T86R/V68A/V73E/Y34C/Y48F/Y58L/Y62H)
[4] = target: HLA-DQ DQA1*01:04/DQB1*05:03 (Homo sapiens, UniProt P01909+P01920, A157S/A221T/A45G/A70V/C70R/D25G/E106S/E118A/E183D/E77G/F83G/G63E/H151Q/H199R/H252R/H253Q/I129T/I235V/I88M/INS77G/K197Q/L107V/L117V/L119Y/L178F/L71W/L74F/L85Q/L91A/L98M/M46L/N214S/P87R/Q116E/Q256R/Q57E/Q76K/R102G/R240Q/R75S/R78G/S102Y/S185I/S41F/S97I/T103A/T109R/T121G/T122I/T172A/T86R/V148I/V68A/V73E/Y34C/Y58G/Y62H)
[5] = target: HLA-DQ DQA1*03:01/DQB1*03:01 (Homo sapiens, UniProt P01909+P01920, A209T/C70Q/DUP78-78/E183D/F237L/G63E/I129T/K197E/L178F/L74F/L98V/Q57E/Q76R/S185I/S97I/T49S/V73L); format: binding
[6] = target: HLA-DQ DQA1*02:01/DQB1*02:02 (Homo sapiens, UniProt P01909+P01920, A45G/A70V/C70K/D167G/D89A/E106A/E183D/E77G/E98D/F237L/F77L/G63E/H199R/I129T/K197E/L107V/L178F/L74F/N214S/P84L/P87L/Q57E/Q76R/R75H/S185I/S97I/T103K/T109R/T172A/T60S/V73L/V78E/V99I/Y48F/Y58L/Y62S/Y69I/Y79F); format: binding
[7] = target: HLA-DQ DQA1*05:01/DQB1*02:01 (Homo sapiens, UniProt P01909+P01920, A45G/A70V/D89A/E106A/E77G/E98D/H199R/L107V/N214S/P84L/P87L/T103K/T109R/T172A/T60S/V78E/V99I/Y58L/Y62S/Y69I/Y79F)
[8] = target: HLA-DQ DQA1*03:01/DQB1*03:02 (Homo sapiens, UniProt P01909+P01920, A209T/A45G/C70Q/D89A/DUP78-78/E183D/E77G/F237L/G63E/H199R/I129T/K197E/L178F/L74F/L98V/Q57E/Q76R/S185I/S97I/T217I/T49S/V73L/Y58L); format: binding
[9] = target: HLA-DQ DQA1*01:02/DQB1*05:02 (Homo sapiens, UniProt P01909+P01920, A157S/A45G/A70V/C70R/D89S/E106S/E118A/E183D/E77G/F83G/G63E/H151Q/H199R/H252R/H253Q/I129T/I235V/I88M/INS77G/K197Q/L107V/L117V/L119Y/L178F/L71W/L74F/L85Q/L91A/L98M/M46L/N214S/P87R/Q116E/Q158H/Q256R/Q76K/R102G/R240Q/R75S/R78G/S102Y/S185I/S41F/S97I/T103A/T109R/T121G/T122I/T172A/T86R/V148I/V229M/V68A/V73E/Y34C/Y58G/Y62H)
[10] = target: HLA-DQ DQA1*01:01/DQB1*05:01 (Homo sapiens, UniProt P01909+P01920, A157S/A45G/A70V/C70R/D89V/E106S/E118A/E183D/E77G/F83G/G63E/H151Q/H199R/H252R/H253Q/I129T/I235V/I88M/INS77G/K197Q/L107V/L117V/L119Y/L178F/L71W/L74F/L85Q/L91A/L98M/M46L/N214S/P87R/Q116E/Q256R/Q57E/Q76K/R102G/R240Q/R75S/R78G/S102Y/S185I/S41F/S97I/T103A/T109R/T121G/T122I/T172A/T86R/V148I/V68A/V73E/Y34C/Y58G/Y62H)
[11] = read-out: Binding capacity/IC50 (nM) DQA1*01:02 DQB1*06:02
[12] = read-out: Binding capacity/IC50 (nM) DQA1*03:01 DQB1*03:01
[13] = read-out: Binding capacity/IC50 (nM) DQA1*02:01 DQB1*02:02
[14] = read-out: Binding capacity/IC50 (nM) DQA1*03:01 DQB1*03:02

| SMILES | IC50 [1, 11] [nM] | IC50 [2] [µM] | IC50 [3] [µM] | IC50 [4] [µM] | IC50 [5, 12] [nM] | IC50 [6, 13] [nM] | IC50 [7] [µM] | IC50 [8, 14] [nM] | IC50 [9] [µM] | IC50 [10] [µM] | IC50 [1] [nM] | IC50 [5] [nM] | IC50 [8] [nM] | IC50 [6] [nM] |
| --- | --- | --- | --- | --- | --- | --- | --- | --- | --- | --- | --- | --- | --- | --- |
| CC[C@H](C)[C@H](NC(=O)[C@H](CCCCN)NC(=O)[C@H](CCC(N)=O)NC(=O)[C@@H](NC(=O)[C@H](C)NC(=O)[C@H](CCC(=O)O)NC(=O)[C@@H](N)[C@@H](C)O)C(C)C)C(=O)N[C@@H](C)C(=O)N[C@H](C(=O)N[C@@H](CCC(=O)O)C(=O)N[C@@H](CO)C(=O)N[C@H](C(=O)N[C@H](C(=O)N[C@H](C(=O)N[C@@H](Cc1c[nH]c2ccccc12)C(=O)NCC(=O)N[C@@H](CCCCN)C(=O)N[C@H](C(=O)N1CCC[C@H]1C(=O)N[C@@H](CCCCN)C(=O)N[C@@H](Cc1ccccc1)C(=O)N[C@@H](CCCNC(=N)N)C(=O)N[C@@H](CC(C)C)C(N)=O)[C@@H](C)O)[C@@H](C)CC)C(C)C)[C@@H](C)CC)[C@@H](C)O [RT(369-391)] | 2830 | 3.19 | 0.261 | > 30 | 1970 | 618 | 1.04 | 9610 | > 30 | > 30 | – | – | – | – |
| CC[C@H](C)[C@H](NC(=O)[C@H](CCCCN)NC(=O)[C@@H](NC(=O)[C@@H](NC(=O)[C@@H](N)CCC(N)=O)[C@@H](C)CC)[C@@H](C)O)C(=O)N[C@@H](CCC(N)=O)C(=O)N[C@@H](CC(N)=O)C(=O)N[C@@H](Cc1ccccc1)C(=O)N[C@@H](CCCNC(=N)N)C(=O)N[C@H](C(=O)N[C@@H](Cc1ccc(O)cc1)C(=O)N[C@@H](Cc1ccc(O)cc1)C(=O)N[C@@H](CCCNC(=N)N)C(=O)N[C@@H](CC(=O)O)C(=O)N[C@@H](CO)C(=O)N[C@@H](CCCNC(=N)N)C(=O)N[C@@H](CC(=O)O)C(=O)N1CCC[C@H]1C(=O)N[C@H](C(=O)N[C@@H](Cc1c[nH]c2ccccc12)C(N)=O)[C@@H](C)CC)C(C)C [integrase(216-235)] | – | 9.77 | 0.153 | 0.202 | – | 4880 | 3.35 | – | 0.076 | 0.038 | 5010 | 6320 | > 30000 | – |
| CC[C@H](C)[C@H](NC(=O)[C@H](C)NC(=O)[C@H](CCCCN)NC(=O)[C@H](CCCCN)NC(=O)CNC(=O)[C@H](CS)NC(=O)[C@@H](NC(=O)[C@H](CCC(=O)O)NC(=O)[C@@H](NC(=O)[C@H](CC(C)C)NC(=O)[C@@H](NC(=O)[C@H](CCC(N)=O)NC(=O)[C@H](CC(=O)O)NC(=O)[C@H](Cc1ccc(O)cc1)NC(=O)[C@H](CCC(N)=O)NC(=O)[C@H](CCCNC(=N)N)NC(=O)[C@@H](NC(=O)[C@H](CCCCN)NC(=O)[C@@H](NC(=O)[C@@H](N)Cc1ccccc1)[C@@H](C)CC)C(C)C)[C@@H](C)CC)[C@@H](C)CC)[C@@H](C)CC)C(=O)NCC(=O)N[C@H](C(=O)N[C@H](C(N)=O)C(C)C)[C@@H](C)O [protease(53-75)] | 6270 | 7.13 | 2.97 | 2.7 | – | 24400 | 4.2 | > 30000 | 0.403 | 0.083 | – | 475 | – | – |
| CC(C)C[C@H](NC(=O)[C@H](CO)NC(=O)[C@H](CCCNC(=N)N)NC(=O)[C@H](CC(C)C)NC(=O)[C@H](CCC(=O)O)NC(=O)[C@H](CCC(=O)O)NC(=O)[C@@H](N)CO)C(=O)N[C@@H](Cc1ccc(O)cc1)C(=O)N[C@@H](CC(N)=O)C(=O)N[C@H](C(=O)N[C@H](C(=O)N[C@@H](C)C(=O)N[C@H](C(=O)N[C@@H](CC(C)C)C(=O)N[C@@H](Cc1ccc(O)cc1)C(=O)N[C@@H](CS)C(=O)N[C@H](C(=O)N[C@@H](Cc1c[nH]cn1)C(=O)N[C@@H](CCC(N)=O)C(N)=O)C(C)C)[C@@H](C)O)C(C)C)[C@@H](C)O [p17(72-90)] | 538 | 7.03 | 0.052 | 6.16 | 2020 | – | 11.3 | > 30000 | 5.52 | 3.16 | – | – | – | 3840 |
| CC[C@H](C)[C@H](N)C(=O)N[C@@H](CCCNC(=N)N)C(=O)N[C@@H](Cc1ccc(O)cc1)C(=O)N1CCC[C@H]1C(=O)N[C@@H](CC(C)C)C(=O)N[C@H](C(=O)N[C@@H](Cc1ccccc1)C(=O)NCC(=O)N[C@@H](Cc1c[nH]c2ccccc12)C(=O)N[C@@H](CS)C(=O)N[C@@H](Cc1ccccc1)C(=O)N[C@@H](CCCCN)C(=O)N[C@@H](CC(C)C)C(=O)N[C@H](C(=O)N1CCC[C@H]1C(=O)N[C@H](C(=O)N[C@@H](CC(=O)O)C(=O)N1CCC[C@H]1C(=O)N[C@@H](CCCNC(=N)N)C(=O)N[C@@H](CCC(=O)O)C(=O)N[C@H](C(=O)N[C@@H](CCC(=O)O)C(=O)N[C@@H](CCC(=O)O)C(=O)N[C@@H](C)C(N)=O)C(C)C)C(C)C)C(C)C)[C@@H](C)O [nef(133-156)] | 10200 | 3.98 | 2.09 | 12.3 | 4270 | > 30000 | 1.84 | > 30000 | 3.26 | 0.915 | – | – | – | – |
| CC[C@H](C)[C@H](NC(=O)[C@H](CC(C)C)NC(=O)[C@H](C)NC(=O)[C@@H](NC(=O)[C@H](CC(C)C)NC(=O)[C@H](C)NC(=O)[C@H](CC(C)C)NC(=O)[C@H](Cc1ccc(O)cc1)NC(=O)[C@H](CCC(N)=O)NC(=O)[C@H](CC(C)C)NC(=O)[C@H](CO)NC(=O)CNC(=O)[C@@H](N)C(C)C)[C@@H](C)O)C(=O)N[C@H](C(=O)N1CCC[C@H]1C(=O)N[C@@H](CCCCN)C(=O)N[C@@H](CCCCN)C(N)=O)[C@@H](C)O [vif(142-158)] | 431 | 1.21 | 1.52 | 7.94 | 260 | – | 0.587 | 11000 | 7.77 | 1.15 | – | – | – | 24500 |
